Experimental data: PubChem BioAssay AID1224833 (University of Georgia, 2016)
Screen: 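Human genes whose knock-down alters rotavirus replication in monkey cells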 (primary screen). Cells: monkey MA104 kidney cells. Reagents: siRNA pool against human genes, 50 nM. Time to read-out: 48 h knock-down before infection; read 24 h after infection. Conditions: infection with rotavirus strain RV3 two days after transfection; infectious dose for this stage not given. Detection: 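Rotavirus antigen per well by fluorescent immunoassay, normalised to non-targeting control wells on each plate and given as a standard z-score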. Reading the numbers: z-score vs non-targeting control: higher = more rotavirus replication than with non-targeting control. Hit rule: In these data the active calls have z-score vs non-targeting control at about -1 or lower, or at about 1 or higher. Meaning of the calls: active = z-score beyond 1 either way; inactive = z-score within 1 of zero.
Shown is a random part of about 12,000 reagents tested. About 5,600 of all reagents (46%) were called active. 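Active calls cover z-scores past 1 in both directions, so they include lowered as well as raised rotavirus replication.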

How did the screen score BDNF (brain derived neurotrophic factor)?
z-score vs non-targeting control: -2.31; Outcome: active

What did the screen give for CLEC16A (C-type lectin domain containing 16A)?
z-score vs non-targeting control: 0.254; Outcome: inactive

What is on record for SIRPB1 (signal regulatory protein beta 1)?
z-score vs non-targeting control: 0.133; Outcome: inactive

What did the screen give for IL10RA (interleukin 10 receptor subunit alpha)?
z-score vs non-targeting control: -2.22; Outcome: active

Which result is listed for PRDM15 (PR/SET domain 15)?
z-score vs non-targeting control: 0.195; Outcome: inactive

What is on record for NPHP1 (nephrocystin 1)?
z-score vs non-targeting control: 0.175; Outcome: inactive

For TM6SF2 (transmembrane 6 superfamily member 2), what was measured?
z-score vs non-targeting control: -0.835; Outcome: inactive

With EMCN (endomucin), what does the deposit list?
z-score vs non-targeting control: -0.828; Outcome: inactive

With L1CAM (L1 cell adhesion molecule), how do the results read?
z-score vs non-targeting control: 1.4; Outcome: active

How did the screen score CYP27A1 (cytochrome P450 family 27 subfamily A member 1)?
z-score vs non-targeting control: -0.897; Outcome: inactive

For GNG13 (G protein subunit gamma 13), what does the deposit list?
z-score vs non-targeting control: -0.235; Outcome: inactive

What is on record for OR10K1 (olfactory receptor family 10 subfamily K member 1)?
z-score vs non-targeting control: -1.8; Outcome: active

How did the screen score RPRD2 (regulation of nuclear pre-mRNA domain containing 2)?
z-score vs non-targeting control: -0.186; Outcome: inactive

With TMEM89 (transmembrane protein 89), how do the results read?
z-score vs non-targeting control: -4.88; Outcome: active

With CLUL1 (clusterin like 1), how do the results read?
z-score vs non-targeting control: 0.263; Outcome: inactive

For KPNA3 (karyopherin subunit alpha 3), how do the results read?
z-score vs non-targeting control: -2.15; Outcome: active

With NCAM1 (neural cell adhesion molecule 1), what does the deposit list?
z-score vs non-targeting control: -0.351; Outcome: inactive

Which result is listed for TFPI2 (tissue factor pathway inhibitor 2)?
z-score vs non-targeting control: 1.85; Outcome: active

What did the screen give for SPIRE1 (spire type actin nucleation factor 1)?
z-score vs non-targeting control: 0.155; Outcome: inactive

3 consecutive records already listed, quoted:
RPRD2 (regulation of nuclear pre-mRNA domain containing 2) | z-score vs non-targeting control = -0.186; Outcome = inactive
TMEM89 (transmembrane protein 89) | z-score vs non-targeting control = -4.88; Outcome = active
CLUL1 (clusterin like 1) | z-score vs non-targeting control = 0.263; Outcome = inactive
